A mixed list of measured activities; the numbers were collected in NIAID ChemDB.

All rows: whole-cell or culture tests; organism: Varicella zoster virus; endpoint: EC50

ECn: concentration that inhibits the pathogen or its effect by n%. Conditions beyond the fields shown may differ between rows.

O=C(NC1CCCCC1)[C@H](Cc1ccccc1)NC(=O)n1nnc2ccccc21 ; cells: HEL ; strain or isolate: 07/1 (TK-) ; read by: plaque count ; result: >3.2 µg/mL
OC[C@H]1O[C@@H](c2cc(C(F)(F)F)c(F)cc2F)C[C@@H]1O ; cells: HEL ; strain or isolate: (TK-)07/1 ; read by: plaque count ; result: >200 µM
COc1nc(=O)n([C@H]2C[C@H](O)[C@@H](CO)O2)cc1/C=C/Cl ; cells: HEL ; strain or isolate: OKA ; read by: plaque count ; result: 4 µg/mL
Cc1cccc(CSCc2cnc3c(Br)cc(Br)c(C)n23)c1 ; cells: HEL ; strain or isolate: 07/1 (TK-) ; read by: plaque count ; result: >20 µg/mL
CC1(C)[C@@H](CO)CC[C@@]1(C)Cn1cc(I)c(=O)[nH]c1=O ; cells: HEL ; strain or isolate: YS ; read by: cytopathic effect ; result: >50 µg/mL
O=[N+]([O-])c1cc([C@H]2C[C@H](O)[C@@H](CO)O2)c(F)cc1F ; cells: HEL ; strain or isolate: TK+/YS ; read by: plaque count ; result: 78 µM
Nc1nc2c(ncn2C[C@H]2CCC[C@H]2CO)c(=O)[nH]1 ; cells: HEL ; strain or isolate: YS (TK+) ; read by: plaque count ; result: >50 µg/mL
Nc1nc(N)c2ncn(CCOCP(=O)(O)O)c2n1 ; cells: HEL ; strain or isolate: Oka PMEA-resistant ; read by: cytopathic effect ; result: 41.3 µM
CCC(C)C1NC(=O)N(CC2CCCCC2)C1=O ; cells: HEL ; strain or isolate: OKA (TK+) ; read by: plaque count ; result: >4 µg/mL
O=c1[nH]c(=O)n([C@H]2C[C@H](O)[C@@H](CO)O2)cc1/C=C/Br ; cells: HEL ; strain or isolate: OKA ; read by: cytopathic effect ; result: 0.007 µg/mL
O=c1[nH]c(=O)n([C@H]2C[C@H](O)[C@@H](CO)O2)cc1/C=C/Br ; cells: HEF ; strain or isolate: CAQU ; read by: plaque count ; result: 0.008 µg/mL
Cn1cc(C(=O)NCc2ccc(Cl)cc2)c(=O)c2cc(CN3CCOCC3)ccc21 ; cells: HFF ; strain or isolate: NE varicella isolate ; read by: plaque count ; result: 0.3 µM
Cc1cc([C@@H]2C[C@H](O)[C@@H](CO)O2)c(F)cc1F ; cells: HEL ; strain or isolate: (TK-)/YS/R ; read by: plaque count ; result: >200 µM
O=c1[nH]c(=O)n([C@H]2C[C@H](O)[C@@H](CO)O2)cc1I ; cells: HEF ; strain or isolate: HIRAI ; read by: plaque count ; result: 0.2 µg/mL
OC[C@H]1O[C@@H](c2ccc(F)cc2F)C[C@@H]1O ; cells: HEL ; strain or isolate: (TK+)/OKA ; read by: plaque count ; result: >200 µM
CC1(C)[C@@H](CO)CC[C@@]1(C)Cn1cc(Br)c(=O)[nH]c1=O ; cells: HEL ; strain or isolate: YS/R (TK-) ; read by: cytopathic effect ; result: >50 µg/mL
Nc1ncc2ncn([C@H]3CCC[C@H]3CO)c2n1 ; cells: HEL ; strain or isolate: 07/1 (TK-) ; read by: plaque count ; result: >20 µg/mL
O=c1nc2oc(CCCOc3ccccc3)cc2cn1[C@H]1C[C@H](O)[C@@H](CO)O1 ; cells: HEL ; strain or isolate: (TK+)/OKA ; read by: plaque count ; result: 77 µM
OC[C@H]1O[C@H](c2cc(I)c(F)cc2F)C[C@@H]1O ; cells: HEL ; strain or isolate: (TK-)07/1 ; read by: plaque count ; result: >200 µM
Nc1nc2c(ncn2COCCO)c(=O)[nH]1 ; cells: HEL ; strain or isolate: YS ; read by: cytopathic effect ; result: 0.2 µg/mL
O=C(O)P(=O)(O)O ; cells: HEL ; strain or isolate: Oka acyclovir-resistant ; read by: cytopathic effect ; result: 36 µM
OC[C@H]1O[C@@H](c2cc(Br)c(F)cc2F)C[C@@H]1O ; cells: HEL ; strain or isolate: (TK+)/OKA ; read by: plaque count ; result: >200 µM
Nc1ncc2ncn(C[C@H]3CCC[C@H]3CO)c2n1 ; cells: HEL ; strain or isolate: OKA (TK+) ; read by: plaque count ; result: >20 µg/mL
Nc1nc(=O)n([C@H]2C[C@H](O)[C@@H](CO)O2)cc1/C=C\Cl ; cells: HEL ; strain or isolate: OKA ; read by: plaque count ; result: 0.2 µg/mL
Cc1cc([C@H]2C[C@H](O)[C@@H](CO)O2)c(Cl)cc1F ; cells: HEL ; strain or isolate: TK+/YS ; read by: plaque count ; result: >200 µM
O=c1nc2oc(CCCSc3ccccc3)cc2cn1[C@H]1C[C@H](O)[C@@H](CO)O1 ; cells: HEL ; strain or isolate: (TK-)/YS/R ; read by: plaque count ; result: >50 µM
CC(C)C[C@H](NC(=O)n1nnc2ccccc21)C(=O)NC1CCCC1 ; cells: HEL ; strain or isolate: (TK+)/OKA ; read by: plaque count ; result: 66 µg/mL
Nc1nc(=O)n([C@H]2C[C@H](O)[C@@H](CO)O2)cc1I ; cells: HEF ; strain or isolate: VEX411 ; read by: cytopathic effect ; result: 0.4 µg/mL
Cc1cc([C@@H]2C[C@H](O)[C@@H](CO)O2)c(Cl)cc1F ; cells: HEL ; strain or isolate: (TK-)/YS/R ; read by: plaque count ; result: >200 µM
Cc1c(Br)cc(Br)c2ncc(CSCCCc3ccccc3)n12 ; cells: HEL ; strain or isolate: YS/R (TK-) ; read by: plaque count ; result: 3.4 µg/mL
CC1(C)[C@@H](CO)CC[C@@]1(C)Cn1cnc2c(Cl)ncnc21 ; cells: HEL ; strain or isolate: YS ; read by: cytopathic effect ; result: >50 µg/mL
Nc1nc2c(ncn2CCC(CO)CO)c(=O)[nH]1 ; cells: HEL ; strain or isolate: Oka CF1368-resistant ; read by: cytopathic effect ; result: 18.2 µM
Cc1c(Br)cc(Br)c2ncc(CSCc3cccs3)n12 ; cells: HEL ; strain or isolate: 07/1 (TK-) ; read by: plaque count ; result: >2 µg/mL
O=c1[nH]c(=O)n([C@H]2C[C@H](O)[C@@H](CO)O2)cc1/C=C/I ; cells: HEF ; strain or isolate: Kanno-Kohmura (TK-) ; read by: plaque count ; result: ≥56 µg/mL
Cc1c(Br)cc(Br)c2ncc(CSCc3ccc(Cl)c(Cl)c3)n12 ; cells: HEL ; strain or isolate: OKA (TK+) ; read by: plaque count ; result: >5 µg/mL
O=c1[nH]c(=O)n([C@@H]2O[C@H](CO)[C@@H](O)[C@@H]2O)cc1/C=C/Br ; cells: HEL ; strain or isolate: Oka BVaraU-resistant ; read by: cytopathic effect ; result: >57 µM
Cc1c(Br)cc(Br)c2ncc(CSCCc3ccccc3)n12 ; cells: HEL ; strain or isolate: 07/1 (TK-) ; read by: plaque count ; result: 3.6 µg/mL
CC(C)C[C@H](NC(=O)n1nnc2ccccc21)C(=O)NCC1CCCCC1 ; cells: HEL ; strain or isolate: (TK+)/OKA ; read by: plaque count ; result: >16 µg/mL
Cc1c(Br)cc(Br)c2ncc(CSCc3ccco3)n12 ; cells: HEL ; strain or isolate: OKA (TK+) ; read by: plaque count ; result: >20 µg/mL
OC[C@H]1O[C@H](c2cc(F)c(F)cc2F)C[C@@H]1O ; cells: HEL ; strain or isolate: (TK-)07/1 ; read by: plaque count ; result: >200 µM
Cc1ccc(OCCCc2cc3cn([C@H]4C[C@H](O)[C@@H](CO)O4)c(=O)nc3o2)cc1 ; cells: HEL ; strain or isolate: (TK-)07/1 ; read by: plaque count ; result: >50 µM
CC1(C)[C@@H](CO)CC[C@@]1(C)Cn1nnc2c(Cl)ncnc21 ; cells: HEL ; strain or isolate: YS ; read by: cytopathic effect ; result: >50 µg/mL

Repeating the final 5 entries:

CC(C)C[C@H](NC(=O)n1nnc2ccccc21)C(=O)NCC1CCCCC1 ; cells: HEL ; strain or isolate: (TK+)/OKA ; read by: plaque count ; result: >16 µg/mL
Cc1c(Br)cc(Br)c2ncc(CSCc3ccco3)n12 ; cells: HEL ; strain or isolate: OKA (TK+) ; read by: plaque count ; result: >20 µg/mL
OC[C@H]1O[C@H](c2cc(F)c(F)cc2F)C[C@@H]1O ; cells: HEL ; strain or isolate: (TK-)07/1 ; read by: plaque count ; result: >200 µM
Cc1ccc(OCCCc2cc3cn([C@H]4C[C@H](O)[C@@H](CO)O4)c(=O)nc3o2)cc1 ; cells: HEL ; strain or isolate: (TK-)07/1 ; read by: plaque count ; result: >50 µM
CC1(C)[C@@H](CO)CC[C@@]1(C)Cn1nnc2c(Cl)ncnc21 ; cells: HEL ; strain or isolate: YS ; read by: cytopathic effect ; result: >50 µg/mL